These results are taken from patent US20230331815A1 (priority 2020, published 2023).

In this data set the test system is VeroE6/Tmprss2 (VE6/T) cells. Kind of data set: hLF internalization into cells, immunofluorescence and western blot. The data set is classed as cell-based, African green monkey. The following applies: 2.5 µM. In general terms: Immunoblotting shows a protein as a band on a membrane.

B1: hLF: human lactoferrin (LF), 711 amino acids, SEQ ID NO:4; 70-80 kDa basic protein of the transferrin family (protein, listed as Homo sapiens)
chain: MKLVFLVLLFLGALGLCLAGRRRRSVQWCAVSQPEATKCFQWQRNMRKVRGPPVSCIKRDSPIQCIQAIAENRADAVTLDGGFIYEAGLAPYKLRPVAAEVYGTERQPRTHYYAVAVVKKGGSFQLNELQGLKSCHTGLRRTAGWNVPIGTLRPFLNWTGPPEPIEAAVARFFSASCVPGADKGQFPNLCRLCAGTGENKCAFSSQEPYFSYSGAFKCLRDGAGDVAFIRESTVFEDLSDEAERDEYELLCPDNTRKPVDKFKDCHLARVPSHAVVARSVNGKEDAIWNLLRQAQEKFGKDKSPKFQLFGSPSGQKDLLFKDSAIGFSRVPPRIDSGLYLGSGYFTAIQNLRKSEEEVAARRARVVWCAVGEQELRKCNQWSGLSEGSVTCSSASTTEDCIALVLKGEADAMSLDEGYVYTAGKCGLVPVLAENYKSQQSSDPDPNCVDRPVEGYLAVAVVRRSDTSLTWNSVKGKKSCHTAVDRTAGWNIPMGLLFNQTGSCKFDEYFSQSCAPGSDPRSNLCALCIGDEQGENKCVPNSNERYYGYTGAFRCLAENAGDVAFVKDVTVLQNTDGNNNEAWAKDLKLADFALLCLDGKRKPVTEARSCHLAMAPNHAVVSRMDKVERLKQVLLHQQAKFGRNGSDCPDKFCLFQSETKNLLFNDNTECLARLHGKTTYEKYLGPQYVAGITNLKKCSTSPLLEACEFLRK
As for B1, the “entry, accumulation and integrity in cells (western blot of cell lysate)” value (10 µM and 50 µM for 0.5, 2, 6 and 24 hours) was “enters, accumulates, and remains intact in cells for up to the 24 hours tested”. The “cell entry (immunofluorescence)” value (10 µM and 50 µM for 24 hrs) is reported as “enters the cells”.
